Laboratory results as given in PMC8205227 (ACS Infectious Diseases, 2021).

Test system: Mtb
Assay: Mycobacterium tuberculosis compound uptake (intracellular accumulation)
Type: cell-based
Conditions: 5 μM and 50 μM, 24 h

SMILES	Intracellular accumulation in Mtb	Intracellular abundance compared with 2b
O=c1cc(-c2ccc(O)c(O)c2)oc2cc(O)c(O)cc12 [Compound 2b, reference compound]	accumulate intracellularly in Mtb in a dose-dependent manner	–
Cc1nn(-c2ccccc2)c(O)c1Sc1nc2cc(Cl)ccc2o1 [Compound 1f, 4-(5-Chloro-1,3-benzoxazol-2-yl)sulfanyl-5-methyl-2-phenyl-pyrazol-3-ol]	accumulate intracellularly in Mtb in a dose-dependent manner	substantially greater than 2b
